Results deposited as PubChem BioAssay AID504761 (Drosophila RNAi Screening Center, 2011)
The deposit covers about 22,000 reagents; below is a random part of those with a known target gene and a result. Of all reagents, 116 (0.52%) are marked active. 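Calls depend on retest data that are not deposited; infection was ranked per plate without normalising between plates; the unit of the infection score is not given.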 Raw values are not corrected between plates. Unmarked entries are inactive. The record does not give: the amount of reagent, the time to read-out.

- Assay: 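Insect host genes that dengue virus relies on to spread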 (primary screen)
- Cells: D.Mel-2 cells from Drosophila
- Reagent: long dsRNA against Drosophila genes
- Challenge: infection with dengue virus type 2; dose and infection time not stated
- Read-out: 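Per well on two replicate plates, imaging gave the percent of cells positive for viral envelope protein, ranked by infection, and a nuclear count of cells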
- Reading the numbers: infection score: higher = more virus-infected cells; cell count: higher = more cells in the well
- Call rule: 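Very low infection ranking in both replicate wells (chance probability at most 0.065), then a retest showing infection dropped 1.5-fold or more at p below 0.05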
- Calls: active = confirmed: knock-down lowers infection; inactive = not picked or not confirmed

| target gene | amplicon | infection score, replicate 1 | infection score, replicate 2 | cell count, replicate 1 | cell count, replicate 2 |
| --- | --- | --- | --- | --- | --- |
| Ugt37C2 (UDP-glycosyltransferase family 37 member C2) | DRSC02247 | 20.2 | 2.41 | 4093 | 6544 |
| neur (neuralized) | DRSC17013 | 5.16 | 4.2 | 6898 | 6782 |
| Gp210 (Glycoprotein 210 kDa) | DRSC04861 | 1.89 | 9.12 | 6836 | 5921 |
| Gp210 (Glycoprotein 210 kDa) | DRSC04900 | 10.2 | 27.9 | 6219 | 5519 |
| JIL-1 (JIL-1 kinase) | DRSC11200 | 6.24 | 6.89 | 6554 | 6064 |
| CG34309 | DRSC14838 | 20 | 14.7 | 6160 | 6415 |
| CG17687 | DRSC10279 | 0.93 | 1.67 | 6209 | 6346 |
| CG17687 | DRSC25837 | 1.59 | 0.86 | 6468 | 5899 |
| Pdp1 (PAR-domain protein 1) | DRSC08896 | 1.72 | 5.24 | 4061 | 4219 |
| Pdp1 (PAR-domain protein 1) | DRSC08897 | 1.96 | 4.03 | 1531 | 1489 |
| Pdp1 (PAR-domain protein 1) | DRSC11251 | 4.81 | 13.8 | 6253 | 6202 |
| Pdp1 (PAR-domain protein 1) | DRSC22973 | 1.16 | 13.4 | 6185 | 6225 |
| CG42260 | DRSC03953 | 4.34 | 1.03 | 5532 | 5249 |
| CG42260 | DRSC04172 | 7.51 | 8.78 | 6844 | 6824 |
| CG42260 | DRSC04385 | 12.6 | 11.2 | 6725 | 6344 |
| CG42260 | DRSC29385 | 7.32 | 8.76 | 5645 | 1917 |
| shep (alan shepard) | DRSC09765 | 8.35 | 9.51 | 6325 | 5597 |
| shep (alan shepard) | DRSC09771 | 5.72 | 4.51 | 7058 | 7159 |
| shep (alan shepard) | DRSC26847 | 3.95 | 3 | 6588 | 6376 |
| CG31548 | DRSC22640 | 8.34 | 28.8 | 6822 | 6386 |
| CG31548 | DRSC25763 | 2.1 | 2.11 | 5528 | 5916 |
| CG2225 | DRSC03722 | 27.2 | 17.8 | 6082 | 6359 |
| CG2225 | DRSC03723 | 14.5 | 18.4 | 6201 | 6097 |
| CG45105 | DRSC15833 | 5.02 | 6.96 | 5195 | 5447 |
| CG45105 | DRSC25976 | 1.73 | 2.66 | 6604 | 6550 |
| oaf (out at first) | DRSC00831 | 2.98 | 1.48 | 6269 | 6937 |
| CG10600 | DRSC02074 | 14 | 21.8 | 5965 | 5960 |
| CG10962 | DRSC18421 | 2.44 | 1.58 | 6669 | 6508 |
| CG10962 | DRSC29512 | 5.32 | 14.7 | 1503 | 2829 |
| lncRNA:CR32661 (long non-coding RNA:CR32661) | DRSC19794 | 12.2 | 23.6 | 2714 | 4390 |
| lncRNA:CR32661 (long non-coding RNA:CR32661) | DRSC28066 | 21.2 | 20.9 | 4614 | 6305 |
| ppk16 (pickpocket 16) | DRSC02736 | 4.19 | 7 | 6155 | 6513 |
| ArgRS-m (Arginyl-tRNA synthetase, mitochondrial) | DRSC14186 | 9.93 | 16 | 5729 | 5471 |
| crb (crumbs) | DRSC16927 | 2.4 | 2.51 | 6697 | 6764 |
| Grx5 (Glutaredoxin 5) | DRSC19593 | 7.43 | 3 | 6525 | 6541 |
| tey (teyrha-meyrha) | DRSC11042 | 22.7 | 7.18 | 5984 | 6033 |
| tey (teyrha-meyrha) | DRSC21709 | 2.9 | 5.19 | 6317 | 6783 |
| tey (teyrha-meyrha) | DRSC26114 | 8.99 | 4.94 | 5917 | 5853 |
| CG15155 | DRSC02456 | 0.68 | 19.8 | 730 | 5998 |

A stretch from the list above, as a working copy:
| target gene | amplicon | infection score, replicate 1 | infection score, replicate 2 | cell count, replicate 1 | cell count, replicate 2 |
| --- | --- | --- | --- | --- | --- |
| CG42260 | DRSC04385 | 12.6 | 11.2 | 6725 | 6344 |
| CG42260 | DRSC29385 | 7.32 | 8.76 | 5645 | 1917 |
| shep (alan shepard) | DRSC09765 | 8.35 | 9.51 | 6325 | 5597 |
| shep (alan shepard) | DRSC09771 | 5.72 | 4.51 | 7058 | 7159 |
